# Results from publication PMC12582335.
# Target: SARS-CoV-2 Wuhan spike protein expressed on the surface of HEK293T cells (SARS-CoV-2 (Wuhan))
# Assay: flow cytometry on cells
# Settings: remark: other sources report otherwise
binder,measurement,value
"recombinant collectin-11 (rCL-11), CHO-expressed, Q9BWP8 26-271 (natural protein) QPAGDDACSVQILVPGLKGDAGEKGDKGAPGRPGRVGPTGEKGDMGDKGQKGSVGRHGKIGPIGSKGEKGDSGDIGPPGPNGEPGLPCECSQLRKAIGEMDNQVSQLTSELKFIKNAVAGVRETESKIYLLVKEEKRYADAQLSCQGRGGTLSMPKDEAANGLMAAYLAQAGLARVFIGINDLEKEGAFVYSDHSPMRTFNKWRSGEPNNAYDEEDCVEMVASGGWNDVACHTTMYFMCEFDKENM",percent inhibition by L-fucose,> 90%
